Results of unrelated studies side by side (data: NIAID ChemDB).

All rows: toxicity to cultured cells; read-out: CC50

CCn: concentration that lowers growth or viability of the cells by n%. Lines come from different laboratories, so protocols vary. An empty or dashed field is not shown.

compound | cell line | method | value
COC(=O)C(C)NP(=O)(OC[C@@H]1C/C1=C/n1cnc2c(N)nc(N)nc21)Oc1ccccc1 | DAUDI | - | 14 µM
CCN(CC)C(=O)OCC1CN(C(=O)c2cc(OC)c(OC)c(OC)c2)CCN1C(=O)c1cc(OC)c(OC)c(OC)c1 | PBL | trypan blue | 280 µM
O=C(/C=C/c1ccc(O)c(O)c1)[Se]c1ccccc1 | Li-7 | WST | >100 µM
O=C(Oc1c(-c2ccc(Cl)cc2)oc2ccccc2c1=O)c1cc(OCc2ccccc2)c(OCc2ccccc2)c(OCc2ccccc2)c1 | KB | - | >100 µM
Cc1cn([C@@H]2C[C@@H](O)[C@H](CO)O2)c(=O)[nH]c1=O | 2.2.15 | - | >2000 µM
N=C1Sc2ccccc2C2=NCCCN12 | n4mBid | luminescence | >60 µM
COc1cc(/C=C/C(=O)[Se]c2ccccc2)ccc1O | HLE | WST | >100 µM
Cc1cn([C@H]2C[C@H](N=[N+]=[N-])[C@@H](CO)O2)c(=O)[nH]c1=O | MRC-9 | neutral red | >100 µM
Nc1nc(F)nc2c1ncn2/C=C1/CC1CO | H-1 | - | 8.5 µM
O=C1CCC(c2ccccc2)C(=O)N1CCCCN1CCN(c2ccc(F)cc2)CC1 | VERO 76 | MTT | 92 µM
Cc1ccc2c(c1)NC(=O)C(NC(=O)c1cccs1)N=C2c1ccccc1 | HEP-2 | - | 5 µM
O=[N+]([O-])c1ccc(CNc2ncnc3c2ncn3[C@H]2CC[C@@H](CO)O2)cc1 | Human fibroblasts | MTT | >5 µM
CCOC(=O)Cc1cc(O)cc2oc(-c3ccc(O)cc3)cc(=O)c12 | HepG 2.2.15 cells | MTT | >1020 µg/mL
Nc1ccn([C@@H]2C[C@@H](O)[C@H](CO)O2)c(=O)n1 | CV-1 | - | >100 µM
COc1cc2ccccc2cc1C(=O)NC1N=C(c2ccccc2)c2ccccc2NC1=O | HEP-2 | - | 6.7 µM
O=c1c(Nc2ccccc2)cn(C2C=CC(O)C2)c(=O)n1C1C=CC(O)C1 | Huh7 cells | MTT | >50 µg/mL
CCOC(=O)c1cc(O)c(O)c(O)c1 | CEM | cell count | 58 µg/mL
O=C(N[C@H]1N=C(c2ccccc2)c2ccccc2NC1=O)c1cc2ccccc2o1 | HEP-2 | - | 2.6 µM
Nc1nc(SCc2ccccc2)c2ncn([C@H]3CC[C@@H](CO)O3)c2n1 | Human fibroblasts | MTT | >5 µM
Cc1cn([C@H]2C[C@H](F)[C@@H](CO)O2)c(=O)[nH]c1=O | K562 | - | 45 µM
OCCN1CCN(CCCN2c3ccccc3Sc3ccc(Cl)cc32)CC1 | Huh 7.5.1 clone 2 | MTT | 10.5 µM
CCc1nc(N)nc(N)c1-c1ccc(Cl)cc1 | CRL-1634 | MTT | >100 µM
O=C(Oc1c(-c2ccc(Cl)cc2)oc2ccccc2c1=O)c1cc(O)c(O)c(O)c1 | KB | - | 6.7 µM
CC(C)(O)c1ccc2c(c1)CC[C@H]1[C@](C)(C(=O)O)CCC[C@]21C | NCl-H187 | absorbance | 24.7 µg/mL
C[C@H](Cn1cnc2nc(N)nc(N(C)C)c21)OCP(=O)(O)O | P3HR-1 | - | 5.5 µg/mL
CCCCCCCCCCCCSCC(COP(=O)([O-])OCC[N+](C)(C)C)OCCCCCCCCO | MRC-9 | neutral red | >100 µM
Nc1nc2c(ncn2/C=C2/C[C@H]2CO)c(=O)[nH]1 | DAUDI | - | >214 µM
COc1cc2c(cc1OC)-c1c3c(cc4ccnc(c14)C2=O)OCO3 | HT-29 | sulforhodamine / absorbance | 38.4 µM
Cc1cn([C@H]2C[C@H](N=[N+]=[N-])[C@@H](CO)O2)c(=O)[nH]c1=O | A3.01 | - | >200 µM
Nc1ccc(S(=O)(=O)Nc2ncccn2)cc1 | CRL-1634 | MTT | >98 µM
COc1cc(N)c(Cl)cc1C(=O)NC1N=C(c2ccccc2)c2ccccc2NC1=O | HEP-2 | - | 2.5 µM
CC(C)C[C@H]1C(=O)N2CCC[C@H]2[C@]2(O)O[C@](NC(=O)[C@@H]3C=C4c5cccc6[nH]c(Br)c(c56)C[C@H]4N(C)C3)(C(C)C)C(=O)N12 | n4mBid | luminescence | >30 µM
CCCCCCCCCCCCSCC(COP(=O)([O-])OCC[N+](C)(C)C)OCCCCCCCCC(=O)OCC(=O)OC[C@H]1O[C@@H](n2cc(C)c(=O)[nH]c2=O)C[C@@H]1N=[N+]=[N-] | MOLT-4 | trypan blue | >100 µM
Nc1nc([Se]Cc2ccccc2)c2ncn([C@H]3CC[C@@H](CO)O3)c2n1 | Human fibroblasts | MTT | >5 µM
C[C@@H]1CC[C@H]2[C@@H](C)C(=O)O[C@@H]3OC4(C)CC[C@@H]1[C@]32OO4 | EBTR | - | >100 µM
Nc1nc(NC2CC2)c2ncn(/C=C3/C[C@H]3CO)c2n1 | DAUDI | - | 132 µM
Cc1ccnc2c1NC(=O)c1cccnc1N2C1CC1 | Lymphocytes | - | >20 µM
CCOC(=O)c1ccc(O)c(O)c1 | CEM | cell count | >100 µg/mL
C/C=C/c1ccc2c(c1)[C@H](C)[C@@H](c1ccc(O)cc1)O2 | P-388 | sulforhodamine / absorbance | 32.4 µM
COc1cc(C(=O)Oc2c(-c3ccc(Cl)c(Cl)c3)oc3ccccc3c2=O)cc(OC)c1OC(C)=O | KB | - | 64 µM
N#Cc1cc2ccncc2c2sc3ccccc3c12 | MRC-5 | visual reading | 196 µg/mL
Nc1ncnc2c1ncn2/C=C1/C[C@@H]1CO | DAUDI | - | 12 µM
Nc1ccn(C[C@H]2COP(=O)(O)CO2)c(=O)n1 | P3HR-1 | - | 18 µg/mL
COc1nc(OC(F)(F)F)c(NC(=O)C2CCC3C4CN(C(=O)OC(C)(C)C)C5=CC(=O)CC[C@]5(C)C4CC[C@]23C)cc1Br | hERG | ATP / luminescence | >30 µM
O=c1[nH]cnc2c1ncn2[C@H]1CC[C@@H](CO)O1 | BFU-E | - | 34 µM
C[C@@H](Cn1cnc2c(NCCN(C)C)ncnc21)OCP(=O)(O)O | P3HR-1 | - | 21 µg/mL
O=C1CCC(c2ccccc2)C(=O)N1CCCCN1CCN(c2ccccc2)CC1 | VERO 76 | MTT | >100 µM
O=C(O)/C=C/c1ccc(O)c(O)c1 | CEM | cell count | 100 µg/mL
Nc1nc(NC2CC2)c2ncn([C@H]3C=C[C@@H](CO)C3)c2n1 | HLE | WST | >100 µM
Nc1nc(N)c2ncn([C@H]3CO[C@@H](CO)O3)c2n1 | 2.2.15 | - | 2100 µM
Cc1cc(O)c2c(c1)C(=O)C=CC2=O | J774A.1 | - | 3.91 µg/mL
C[C@]12C=CC(=O)C=C1CC[C@@H]1C2=CC[C@]2(C)[C@@H](C(=O)CN3CCN(c4cc(N5CCCC5)nc(N5CCCC5)n4)CC3)CC[C@@H]12 | n4mBid | luminescence | >30 µM
Nc1nc(Cl)c2ncn(/C=C3/C[C@H]3CO)c2n1 | DAUDI | - | >199 µM
O=c1[nH]c(=O)n(C2C=CC(O)C2)cc1Nc1ccc(Oc2ccccc2)cc1 | Vero cells | MTT | >50 µg/mL
O=c1cc(-c2ccc(O)cc2)oc2cc(O)cc(O)c12 | n4mBid | luminescence | >30 µM
Cc1cccc(Nc2c[nH]c(=O)[nH]c2=O)c1 | A549 cells | MTT | >50 µg/mL
CN(C)c1nc(N)nc2c1ncn2CCOCP(=O)(O)O | P3HR-1 | - | 0.1 µg/mL
CNCCCC1c2ccccc2C=Cc2ccccc21 | n4mBid | luminescence | 16 µM
Cc1cn([C@H]2C[C@H](N=[N+]=[N-])[C@@H](CO)O2)c(=O)[nH]c1=O | CEM-CD4 | MTT | 200 µM
Cc1ccc(/C=C/C=C/C(=O)[Se]c2ccccc2)cc1 | HLE | WST | >100 µM
Nc1[nH]c(=O)nc2c1ncn2/C=C1/C[C@H]1CO | H-1 | - | 86 µM
O=P(O)(O)COCCn1cnc2c(N3CCCC3)ncnc21 | P3HR-1 | - | >100 µg/mL
C[C@]12CC[C@H](O)CC1=CC[C@@H]1[C@@H]2CC[C@]2(C)C(=O)CC[C@@H]12 | PBL(PHA-M) | - | >100 µM
O=C(Nc1cccc(Cl)c1Cl)NC1N=C(c2ccccc2)c2ccccc2NC1=O | HEP-2 | - | 2 µM
O=C(/C=C/C=C/c1ccc(Br)cc1)[Se]c1ccccc1 | HLE | WST | >100 µM
O=C1CCC(c2ccccc2)C(=O)N1CCCN1CCN(c2ccccn2)CC1 | VERO 76 | MTT | >100 µM
NC(=O)c1cc2ccncc2c2sc3ccccc3c12 | MRC-5 | visual reading | 1.3 µg/mL
Nc1ncnc2c1ncn2[C@@H]1C[C@@H](O)[C@H](CO)O1 | CV-1 | - | >100 µM
Nc1nc(Cl)c2ncn(/C=C3/C[C@@H]3CO)c2n1 | DAUDI | - | 15 µM

A second listing of 6 rows from above:

compound,cell line,method,value
Nc1ncnc2c1ncn2/C=C1/C[C@@H]1CO,DAUDI,-,12 µM
COc1cc2c(cc1OC)-c1c3c(cc4ccnc(c14)C2=O)OCO3,HT-29,sulforhodamine / absorbance,38.4 µM
CCOC(=O)c1cc(O)c(O)c(O)c1,CEM,cell count,58 µg/mL
Nc1ccn(C[C@H]2COP(=O)(O)CO2)c(=O)n1,P3HR-1,-,18 µg/mL
Nc1nc2c(ncn2/C=C2/C[C@H]2CO)c(=O)[nH]1,DAUDI,-,>214 µM
C[C@]12CC[C@H](O)CC1=CC[C@@H]1[C@@H]2CC[C@]2(C)C(=O)CC[C@@H]12,PBL(PHA-M),-,>100 µM